Data: the supplement of paper PMC9931576
Human monoclonal antibodies against the spike receptor-binding domain (heavy:light variable regions). IC50 against pseudoviruses bearing the spike of naturally observed variants; lower = stronger; >10 µg/ml means not reached at the top dose. No active / inactive call. The stated detection limit is 0.0005 µg/ml; values near or below 0.001 µg/ml lie at the floor of the assay.

B1: BD55-6543 (protein)
chain 1: QLQLQESGPGLVKPSETLSLTCTVSGGSMRSSFYWGWIRQPPGKGLEWIGTLYTSGSTYYNPSVKSRITISEDTSKNQFSLNLRSLTAADSAVYYCVRVRIISGYSSDWQGETFYFDLWGRGTLVTVSS
chain 2: SYVLTEPPSVSVAPGATATITCGGTNLGSQSVHWYQQKPGQAPVLVVFENSARPSTIPERFSGSNSGNTATLTISRVEAGDEADYYCQVWDSRSDLVLFGGGTKLTVL
B2: BD55-6544 (protein)
chain 1: QITLKESGPTLVKPTQTLTLTCTFSGFSLTTSGVGVGWIRQPPGKALEWLALIYWDDDKRYSPSLKTRITITKGTSKNQVVLTLTNMDPVDTATYYCAHMARPRGLPINPSWFDPWGQGTLVTVSS
chain 2: QSVLTQPPSASGTPGQRVTISCSGSSSNIGSNTVNWYQQLPGTAPKLLIYSHNQRPSGVPDRFSGSKSGSSASLAISGLQSGDEANYYCSTWDDSLNGPVFGGGTKLTVL
B3: BD55-6548 (protein)
chain 1: QVTLKESGPVLVKPTETLTLTCTVSGFSLSNTRMGVSWIRQPPGKTLEWLAHISSNDAKSYSTSLKSRLTISMDTSKSQVVLTMTNMDPVDTATYYCARQTYGYSSGWYEDYWGQGTLVTVSS
chain 2: DIQMTQSPSSLSASVGDRVSLTCRASQSISSYLNWYQQKPGKAPKLLIHAASSLQSGVPSRFSGSGSGTDFTLTISSLQPEDFATYYCHQSYSTPPTFGQGTKLEIK
B4: BD55-6550 (protein)
chain 1: QVTLKESGPVLVKPTETLTLTCTVSEFSLNKVKMGVSWIRQPPGQALEWLAHIFSDDEESYNTSLKSRLTISKGASKSQVVLTMTNMDPVDTATYYCARMTFVATPLGYFYYMDVWGEGAPVTVSS
chain 2: DIQMTQSPSTLSASVGDRVTITCRASQSVNVWLAWYQQKPGKAPKLLIYKASSLEDGVPSRFSGSGSGTEFTLTISSLQPDDFATYYCQQYNGYFFTFGQGTKLEIK
B5: BD55-6553 (protein)
chain 1: QVHLQQWGAGLLKPSETLSLTCAVYGGSISGSNYYWSWIRQPPGKGLEWIGEINHTGSTDYSPSLKSRVTMSLDTSKNQFSLNLSSVTAADTAMYYCARGLWYYYGSVSGYYYGMDVWGQGTTVTVSS
chain 2: QSVLTQPPSVSAAPGQKVTISCSRSGSNIGNNYVSWYQQLPGTAPKLLIYDNDKRPSGIPDRFSASNSGTSATLGISGLQTGDEADYYCGTWDSSLGARYVFGTGTKVTVL
B6: BD55-6557 (protein)
chain 1: QVQLQQWGAGLLKPSETLSLTCAVYDGSFSGYFWSWIRQPPGKGLEWIGEIFHTGSTNYRPSLKSRLAVSMDTSKNHFSLKLTSLTAADTAVYYCARRPYCSGRYGCAFDMWGQGTMVSVSS
chain 2: DIVMTQSPDSLAVSLGERATIRCKSSQSVLYDANSKNYLAWYQHKPGQPPQLLLYWASTRESGVPDRFSGSGSGTDFTLTISSLQAEDVAVYYCQQYYNTPTFGQGTRLEIK

These binders were tested against SARS-CoV-2 Omicron BA.1 spike pseudovirus (assay: pseudovirus neutralization IC50; higher = weaker neutralization).
Protocol: (§1)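 Single-round VSV luciferase pseudovirus mixed with antibody dilutions for 1 h and put on Huh-7 cells for about a day; IC50 from the dose curve.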

Binder | pseudovirus neutralization IC50
B1 | > 10 µg/mL
B2 | > 10 µg/mL
B3 | > 10 µg/mL
B4 | > 10 µg/mL
B5 | > 10 µg/mL
B6 | > 10 µg/mL

What follows are binders tested against SARS-CoV-2 Omicron BA.2 spike pseudovirus in the same assay as above.
Protocol: as §1

Binder | pseudovirus neutralization IC50
B1 | > 10 µg/mL
B2 | > 10 µg/mL
B3 | > 10 µg/mL
B4 | > 10 µg/mL
B5 | > 10 µg/mL
B6 | > 10 µg/mL

What follows are binders tested against SARS-CoV-2 Omicron BA.2.75 spike pseudovirus in the same assay as above.
Protocol: as §1

Binder | pseudovirus neutralization IC50
B1 | > 10 µg/mL
B2 | > 10 µg/mL
B3 | > 10 µg/mL
B4 | > 10 µg/mL
B5 | > 10 µg/mL
B6 | > 10 µg/mL

The binders below were run against SARS-CoV-2 Omicron BA.5 spike pseudovirus in the same assay as above.
Protocol: as §1

Binder | pseudovirus neutralization IC50
B1 | > 10 µg/mL
B2 | > 10 µg/mL
B3 | > 10 µg/mL
B4 | > 10 µg/mL
B5 | > 10 µg/mL
B6 | > 10 µg/mL

Each binder was assayed against SARS-CoV-2 Omicron BQ.1.1 spike pseudovirus in the same assay as above.
Protocol: as §1

Binder | pseudovirus neutralization IC50
B1 | > 10 µg/mL
B2 | > 10 µg/mL
B3 | > 10 µg/mL
B4 | > 10 µg/mL
B5 | > 10 µg/mL
B6 | > 10 µg/mL

What follows are binders tested against SARS-CoV-2 Omicron XBB spike pseudovirus in the same assay as above.
Protocol: as §1

Binder | pseudovirus neutralization IC50
B1 | > 10 µg/mL
B2 | > 10 µg/mL
B3 | > 10 µg/mL
B4 | > 10 µg/mL
B5 | > 10 µg/mL
B6 | > 10 µg/mL

The binders below were run against SARS-CoV-2 early D614G spike pseudovirus in the same assay as above.
Protocol: as §1

Binder | pseudovirus neutralization IC50
B1 | 1.19 µg/mL
B2 | > 10 µg/mL
B3 | > 10 µg/mL
B4 | 2.21 µg/mL
B5 | > 10 µg/mL
B6 | > 10 µg/mL
